Compound potency records, mixed from different reports. Data source: NIAID ChemDB in PubChem.

All rows: tests on isolated targets; species: HIV-1; target: Protease; read-out: IC50

Neighbouring rows are from separate reports. ICn is the concentration giving n% inhibition. An empty or dashed field is not shown.

structure | strain | result
CC(C)(C)CNC(=O)[C@H](Cc1ccccc1)[C@H](O)CN1C[C@H]2CCCC[C@H]2C[C@H]1C(=O)NC(C)(C)C |  | 0.02 µM
CC(C)(C)NC(=O)[C@@H]1C[C@@H]2CCCC[C@@H]2CN1C[C@@H](O)[C@H](Cc1ccccc1)NC(=O)[C@@H](N)C(C)(C)C |  | 0.2 µM
Cc1ccccc1CNC(=O)[C@@H]1CSCN1C(=O)[C@@H](O)[C@H](Cc1ccccc1)NC(=O)CC(C)(C)C(=O)O | IIIB | <5 µM
CN(C)c1ccc(CNC(=O)[C@@H](NC(=O)Cc2ccccc2)[C@@H]2N[C@@H](C(=O)NC[C@@H](O)CN3C[C@H]4CCCC[C@H]4C[C@H]3C(=O)NC(C)(C)C)C(C)(C)S2)cc1 | RF | 0.0236 µM
O=C(/C=C/c1ccc(O)c2c1[C@H](C(=O)O)[C@@H](c1ccc(O)c(O)c1)O2)O[C@H](Cc1ccc(O)c(O)c1)C(=O)O |  | >100 µM
CC(C)(C)NC(=O)[C@@H]1C[C@@H]2CCCC[C@@H]2CN1C[C@@H](O)[C@@H](Cc1ccccc1)C(=O)NC1CCc2ccccc21 |  | 0.055 µM
CC(C)[C@H](NC(=O)[C@H](CCCN=C(N)N)NC(=O)N[C@@H](Cc1ccccc1)C(=O)O)C(=O)N[C@@H](C=O)Cc1ccccc1 |  | 32 µM
CC(C)[C@H](NC(=O)OCc1ccccc1)C(=O)N[C@@H](Cc1ccccc1)[C@H](O)[C@@H](CO)[C@H](Cc1ccccc1)NC(=O)[C@@H](NC(=O)OCc1ccccc1)C(C)C |  | 0.017 µM
CC(C)(C)NC(=O)[C@@H]1CSCN1C(=O)[C@@H](O)[C@H](Cc1ccccc1)NC(=O)CC(C)(C)C(=O)O | IIIB | <5 µM
COC(=O)[C@@H](NC(=O)N(Cc1ccccc1)CC(O)CN(Cc1ccccc1)C(=O)N[C@H](C(=O)OC)C(C)C)C(C)C |  | 10 µM
CC(C)(C)NC(=O)[C@H]1N(C(=O)[C@@H](O)[C@H](Cc2ccccc2)NC(=O)[C@H](CC(N)=O)NC(=O)COc2cccc(-c3ccccc3)c2)CSC1(C)C |  | 0.0022 µM
Cc1ccccc1CNC(=O)[C@H]1N(C(=O)[C@@H](O)[C@H](Cc2ccccc2)NC(=O)C(C)C(C)C(=O)O)CSC1(C)C | IIIB | <5 µM
CC(C)N(CC(=O)N(Cc1ccccc1)CC(O)CN(Cc1ccccc1)C(=O)CN(C(=O)CN(C(=O)OC(C)(C)C)C(C)C)C(C)C)C(=O)CN(C(=O)OC(C)(C)C)C(C)C |  | 10 µM
CC(C)(C)NC(=O)[C@@H]1CSCN1C(=O)[C@@H](O)[C@H](Cc1ccccc1)NC(=O)[C@H](CS(C)(=O)=O)NC(=O)COc1cccc2ccccc12 |  | 0.004 µM
CC(C)(C)NC(=O)[C@H]1N(C(=O)[C@@H](O)[C@H](Cc2ccccc2)NC(=O)CC(C)(C)C(=O)O)CSC1(C)C | IIIB | <5 µM
CCCCCCCC/C=C\CCCCCCCC(=O)N(CC(=O)N(CC(=O)N(Cc1ccccc1)CC(O)CN(Cc1ccccc1)C(=O)CN(C(=O)CN(C(=O)CCCCCCC/C=C\CCCCCCCC)C(C)C)C(C)C)C(C)C)C(C)C |  | 10 µM
Cc1ccccc1CNC(=O)[C@@H]1CSCN1C(=O)[C@@H](O)[C@H](Cc1ccccc1)NC(=O)C(C)C(C)C(=O)O | IIIB | <5 µM
CC(C)(C)CC(=O)N[C@H](Cc1ccccc1)[C@H](O)CN1C[C@H]2CCCC[C@H]2C[C@H]1C(=O)NC(C)(C)C |  | 0.75 µM
O=c1oc2ccccc2c(O)c1CCCSc1ccccc1 |  | 0.862 µM
CC(C)(C)NC(=O)[C@@H]1C[C@@H]2CCCC[C@@H]2CN1C[C@@H](O)[C@@H](Cc1ccccc1)C(=O)NC1c2ccccc2C[C@H]1O |  | 0.12 µM
CC(C)(C)NC(=O)[C@@H]1CCCCN1C(=O)[C@@H](O)[C@H](Cc1ccccc1)NC(=O)[C@H](CC(N)=O)NC(=O)OCc1ccccc1 |  | 0.45 µM
CC(C)[C@H](NC(=O)[C@H](CCCN=C(N)N)NC(=O)N[C@@H](Cc1ccc(O)cc1)C(=O)O)C(=O)N[C@H](C=O)Cc1ccccc1 |  | 18 µM
Cc1cccc(C)c1OCC(=O)N[C@@H](Cc1ccccc1)[C@H](O)CN1CC[C@@H](Sc2ccncc2)C[C@H]1C(=O)NC(C)(C)C |  | 0.0033 µM
CC(C)(C)NC(=O)[C@@H]1CCCN1C(=O)[C@@H](O)[C@H](Cc1ccccc1)NC(=O)[C@H](CC(N)=O)NC(=O)COC(c1ccc(Cl)cc1)c1ccc(Cl)cc1 |  | 0.028 µM
CC(C)(C)CC(=O)N[C@@H](Cc1ccccc1)[C@H](O)CN1C[C@H]2CCCC[C@H]2C[C@H]1C(=O)NC(C)(C)C |  | 0.7 µM
Nc1c(N=Nc2ccc(-c3ccc(N=Nc4cc(S(=O)(=O)O)c5ccccc5c4N)cc3)cc2)cc(S(=O)(=O)O)c2ccccc12 |  | 0.78 µM
CC(C)(C)NC(=O)[C@@H]1C[C@@H]2CCCC[C@@H]2CN1C[C@@H](O)[C@H](Cc1ccccc1)NC(=O)[C@@H](NC(=O)c1ccc2ccccc2n1)C(C)(C)S(C)(=O)=O |  | 0.0005 µM
CC(C)(C)NC(=O)C1N(C(=O)[C@@H](O)[C@H](Cc2ccccc2)NC(=O)[C@H](CS(C)(=O)=O)NC(=O)COc2cccc3ccccc23)CSC1(C)C |  | 0.0026 µM
CC(C)[C@H](NC(=O)OCc1ccccc1)C(=O)N[C@@H](Cc1ccccc1)[C@H](O)[C@@H](CO)[C@H](Cc1ccccc1)NC(=O)[C@H](CC(N)=O)NC(=O)OCc1ccccc1 |  | 0.11 µM
CC(C)(C)NC(=O)[C@@H]1C[C@@H]2CCCC[C@@H]2CN1C[C@@H](O)[C@H](Cc1ccccc1)NC(=O)[C@@H](N)C(C)(C)S(C)(=O)=O |  | 0.0086 µM
O=C(N[C@@H](Cc1ccccc1)[C@@H](O)C[C@]1(Cc2ccccc2)CCN([C@@H]2CS(=O)(=O)Cc3ccccc32)C1=O)O[C@H]1CCOC1 |  | 0.0018 µM
CSC[C@H](NC(=O)COc1cccc(-c2ccccc2)c1)C(=O)N[C@@H](Cc1ccccc1)[C@H](O)C(=O)N1CSC(C)(C)[C@H]1C(=O)NC(C)(C)C |  | 0.0023 µM
CC(C)(O)c1cccc(CN2C(=O)N(Cc3cccc(C(C)(C)O)c3)[C@H](Cc3ccccc3)[C@H](O)[C@@H](O)[C@H]2Cc2ccccc2)c1 | RF | 0.015 µM
Cc1ccccc1CNC(=O)[C@H]1N(C(=O)[C@@H](O)[C@H](Cc2ccccc2)NC(=O)C(C)C(C)C(=O)OC[C@@H]2O[C@H](n3cc(C)c(=O)[nH]c3=O)C[C@H]2N=[N+]=[N-])CSC1(C)C | IIIB | <5 µM

3 of the rows above, restated:

| structure | strain | result |
|---|---|---|
| CC(C)[C@H](NC(=O)OCc1ccccc1)C(=O)N[C@@H](Cc1ccccc1)[C@H](O)[C@@H](CO)[C@H](Cc1ccccc1)NC(=O)[C@@H](NC(=O)OCc1ccccc1)C(C)C |  | 0.017 µM |
| CC(C)(O)c1cccc(CN2C(=O)N(Cc3cccc(C(C)(C)O)c3)[C@H](Cc3ccccc3)[C@H](O)[C@@H](O)[C@H]2Cc2ccccc2)c1 | RF | 0.015 µM |
| CC(C)(C)CNC(=O)[C@H](Cc1ccccc1)[C@H](O)CN1C[C@H]2CCCC[C@H]2C[C@H]1C(=O)NC(C)(C)C |  | 0.02 µM |